Molecular target: LcrG, full length, Yersinia pseudotuberculosis, P69958 1-95
Experiment: FRET or BRET

With “LcrV-BODIPY (LcrV C273A D293C labelled with BODIPY)” the result was “binds”.

— article PMC12720783, “Dynamic interaction of the Yersinia pseudotuberculosis type three secretion system proteins LcrV and LcrG” (2025)
